A mixed list of measured activities; the numbers were collected in NIAID ChemDB.

Shared fields: growth or infection tests; species: HIV-1; cells: CEM + CEM-SS; measure: EC50

ECn is the concentration giving n% inhibition of infection, replication or growth. Two numbers with a dash give a range or band. Conditions beyond the fields shown may differ between rows. An empty or dashed field is not shown.

smiles | strain or isolate | changes | read by | value
CC(=O)OC[C@H]1O[C@@H](SCCOP(=O)(O)OC[C@H]2O[C@@H](n3cc(C)c(=O)[nH]c3=O)C[C@@H]2N=[N+]=[N-])[C@H](OC(C)=O)[C@@H](OC(C)=O)[C@@H]1OC(C)=O | LAI | - | RT activity | 0.01 µM
CC12CCC(C(=O)n3c1nc1ccccc13)C(C)(C)O2 | RF | - | - | >200 µM
Cc1cn([C@H]2C[C@H](N=[N+]=[N-])[C@@H](COP(=O)(OCCSC(=O)C(C)(C)C)OCCSC(=O)C(C)(C)C)O2)c(=O)[nH]c1=O | LAI | - | RT activity | 0.015 µM
O=c1ccn([C@H]2C=C[C@@H](CO)O2)c(=O)n1C/C=C/CN1CCN(CCNC(=S)Nc2ccc(Br)cn2)CC1 | IIIB | - | RT activity | >100 µM
c1ccc(CN2CCc3cncn3CC2)cc1 | Nevirapine-resistant | RT-Y181C | RT activity | 225 µM
CC(C)C(NC(=O)OC(C)(C)C)C(=O)O[C@H](CN1C[C@H]2CCCC[C@H]2C[C@H]1C(=O)NC(C)(C)C)[C@H](Cc1ccccc1)NC(=O)[C@H](CC(N)=O)NC(=O)c1ccc2ccccc2n1 | LAI | - | cytopathic effect / MTT | 0.084 µM
CC(C)(C)NC(=O)[C@@H]1C[C@@H]2CCCC[C@@H]2CN1C[C@@H](O)[C@H](CSc1ccccc1)NC(=O)[C@H](CC(N)=O)NC(=O)c1ccc2ccccc2n1 | - | - | - | <0.0013 µM
N[C@@H](CO[C@@H]1O[C@H](CO)[C@H](O)[C@H](O)[C@H]1O)C(=O)NCCCCCCCCCCCC(F)(F)C(F)(F)C(F)(F)C(F)(F)C(F)(F)C(F)(F)F | LAI | - | RT activity | 40 µM
CC(C)(C)NC(=O)[C@@H]1C[C@@H]2CCCC[C@@H]2CN1C[C@@H](OC(=O)COc1ccc(CC(NC(=O)OC(C)(C)C)C(=O)OC(C)(C)C)cc1)[C@H](Cc1ccccc1)NC(=O)[C@H](CC(N)=O)NC(=O)c1ccc2ccccc2n1 | LAI | - | cytopathic effect / MTT | 0.01 µM
CN1N=C(N)c2cn([C@@H]3O[C@H](COP(=O)(O)O)[C@@H](O)[C@H]3O)c3ncnc1c23 | G-691 | - | syncytia | 0.043 µM
CCCCCC=C(c1cc(Cl)c(O)c(C(=O)O)c1)c1cc(Cl)c(O)c(C(=O)O)c1 | RF | - | cytopathic effect / XTT | >95 µM
Clc1cc2nc(C3CCCO3)[nH]c2cc1Cl | RF | - | - | >0.063 µM
Cc1cn([C@H]2C=C[C@@H](CO)O2)c(=O)n(CCCCN2CCN(CCNC(=S)Nc3ccc(Br)cn3)CC2)c1=O | IIIB | - | RT activity | 19 µM
CC(C)=CCOc1cc(NC(=S)c2ccsc2C)ccc1Cl | NL4-3 | RT-Y181C | p24 | 0.03 µM
Cc1cn([C@H]2C[C@H](N=[N+]=[N-])[C@@H](COP(=O)(O)OC[C@@H]3CC[C@H](n4ccc(N)nc4=O)O3)O2)c(=O)[nH]c1=O | IIIB | - | cytopathic effect / XTT | 0.0259–0.0831 µM
c1ccc2[nH]c(C3CCCCO3)nc2c1 | RF | - | - | >6.33 µM
S=c1[nH]cc2n1CCN(Cc1ccccc1)CC2 | LAI | - | RT activity | >100 µM
CC(C)(C)NC(=O)c1ccccc1C[C@@H](O)[C@H](Cc1ccccc1)NC(=O)[C@H](CC(N)=O)NC(=O)c1ccc2ccccc2n1 | RF | - | cytopathic effect / XTT | 0.02 µM
COc1cc(-c2ccc(N=Nc3ccc4c(S(=O)(=O)O)cc(S(=O)(=O)O)c(N)c4c3O)c(OC)c2)ccc1N=Nc1ccc2c(S(=O)(=O)O)cc(S(=O)(=O)O)c(N)c2c1O | McK | - | cytopathic effect / XTT | 0.6 µM
Cc1cc(C(=O)O)ccc1N=Nc1c(S(=O)(=O)O)cc2cc(NC(=O)Nc3ccc4c(O)c(N=Nc5ccc(C(=O)O)cc5C)c(S(=O)(=O)O)cc4c3)ccc2c1O | RF | - | cytopathic effect / XTT | 2.5 µM
CC(C)CCC[C@@H](C)[C@H]1CC[C@H]2[C@@H]3CC=C4C[C@@H](O)CC[C@]4(C)[C@H]3CC[C@]12C | LAI | - | RT activity | >66 µM
Cc1cn([C@H]2C[C@H](N=[N+]=[N-])[C@@H](COP(=O)(O)OCCS[C@@H]3O[C@H](CO)[C@@H](O)[C@H](O)[C@H]3O)O2)c(=O)[nH]c1=O | LAI | - | RT activity | 0.004 µM
Cc1cn([C@H]2C=C[C@@H](CO)O2)c(=O)n(CCOCCN2CCN(CCNC(=S)Nc3ccc(Br)cn3)CC2)c1=O | IIIB | - | RT activity | 67 µM
CCCc1cc(=O)oc2c3c(c4c(c12)OC(C)(C)CC4)O[C@H](C)[C@@H](C)C3=O | IIIB | - | cytopathic effect / XTT | 1.09 µM
COCCOCCOCCOCCOCCOCCOCCOCCOCCOCCOCCOCCOCCOCCOCCOCCOCCOCCOCCOCCOCCOCCOCCOCCOCCOCCOCCOCCOCCOCCOCCOCCOCCOCCOCCOCCOCCOCCOCCOCCOCCOCCOCCOCCOC(=O)CCC(=O)O[C@@H]1Cc2ccccc2[C@@H]1NC(=O)[C@H](Cc1ccccc1)C[C@H](O)CN1CCN(Cc2cccnc2)C[C@H]1C(=O)NC(C)(C)C | LAI | - | cytopathic effect / MTT | 0.085 µM
O=C(O)c1cc(C(=CCC23CC4CC(CC(C4)C2)C3)c2cc(Cl)c(O)c(C(=O)O)c2)cc(Cl)c1O | RF | - | cytopathic effect / XTT | >105 µM
COc1ccc2c(c1)OC[C@@H]1c3cc(O)c4c(OCc5ccccc5)cccc4c3O[C@H]21 | RF | - | cytopathic effect / XTT | >51 µM
CCCCCCCCCCCCCCNC(=O)[C@H](CS[C@@H]1O[C@H](CO)[C@H](O)[C@H](O)[C@H]1O)NC(=O)CCCCCCCCCCCCC | LAI | - | RT activity | >25 µM
COc1ccc([C@H]2Oc3cc(OCc4ccccc4)c(O)cc3[C@@H]2C)c(OC)c1 | RF | - | cytopathic effect / XTT | >51.4 µM
CCCCCCCCCCCCCCNC(=O)[C@H](CS[C@@H]1O[C@H](COS(=O)(=O)O)[C@H](OS(=O)(=O)O)[C@H](OS(=O)(=O)O)[C@H]1NC(C)=O)NC(=O)CCCCCCCCCCC | LAI | - | RT activity | >10 µM
CCCCCCCCCCCCCCCC(=O)Nc1ccn([C@H]2CC[C@@H](COP(=O)(O)OC[C@@H]3CC[C@H](n4cnc5c(=O)[nH]cnc54)O3)O2)c(=O)n1 | IIIB | - | cytopathic effect / XTT | 0.697–1.02 µM
Cc1cn([C@H]2C=C[C@@H](CO)O2)c(=O)n(CCCCCCN2CCN(CCNC(=S)Nc3ccc(Br)cn3)CC2)c1=O | IIIB | - | RT activity | 10 µM
COc1ccc2c(c1)OC[C@@H]1c3cc(CC=C(C)C)c(OCc4ccccc4)cc3O[C@H]21 | RF | - | cytopathic effect / XTT | >35.8 µM
COc1cc(O)c(C2CCCCN2C)c2oc(-c3ccccc3)cc(=O)c12 | RF | - | cytopathic effect / XTT | >5.7 µM
CN(C)C1=C(C#N)/C(=C2/C(C#N)=C(N(C)C)N(c3ccc([N+](=O)[O-])cc3)c3c2n(C)c2ccccc32)c2c(c3ccccc3n2C)N1c1ccc([N+](=O)[O-])cc1 | ddI-resistant (RT-K65R) | RT-K65R | cytopathic effect / XTT | 0.62 µM

The last 2 rows once more:

smiles,strain or isolate,changes,read by,value
COc1cc(O)c(C2CCCCN2C)c2oc(-c3ccccc3)cc(=O)c12,RF,-,cytopathic effect / XTT,>5.7 µM
CN(C)C1=C(C#N)/C(=C2/C(C#N)=C(N(C)C)N(c3ccc([N+](=O)[O-])cc3)c3c2n(C)c2ccccc32)c2c(c3ccccc3n2C)N1c1ccc([N+](=O)[O-])cc1,ddI-resistant (RT-K65R),RT-K65R,cytopathic effect / XTT,0.62 µM